Experimental data from ChEMBL document CHEMBL1129785, “Preparation and structure-activity relationship of novel P1/P1'-substituted cyclic urea-based human immunodeficiency virus type-1 protease inhibitors” (J Med Chem, 1996).

Biological target: Human immunodeficiency virus type 1 protease (Human immunodeficiency virus 1, UniProt Q72874)
Assay: Inhibitory activity against HIV protease

CC(C)[C@@H]1[C@H](O)[C@@H](O)[C@@H](C(C)C)N(CC2CC2)C(=O)N1CC1CC1
Ki: 250 nM
